Tested on: S. aureus MRSA
Test: Biofilm formation using crystal violet
Format: cell-based, Staphylococcus aureus
Details: ½ MIC, 48 h, non-treated 1.3 ± 0.1 AU
Description: The anti-biofilm effect of the tested compounds against S. aureus strains and wild-type S. Typhimurium SE01 was measured using crystal violet (CV; 0.1% (v/v)). This dye is used to detect the total biofilm biomass formed. Overnight cultures were diluted to OD of 0.1 at 600 nm in TSB medium. Then, the bacterial cultures were added to 96-well microtiter plates and the compounds were added at ½ MIC concentration. The final volume was 200 μL in each well. The microtiter plates were incubated at 30 °C for 48 h with gentle agitation (100 rpm). After the incubation period, TSB medium was discarded, and the plates were washed with tap water to remove unattached cells. Then 200 μL crystal violet was added to the wells and incubated for 15 min at room temperature. Then, CV was removed from the wells and the plates were washed again with tap water, and 200 μL of 70% ethanol was added to the wells. Finally, the biofilm formation was determined by measuring the OD at 600 nm using Multiscan EX ELISA plate reader (Thermo Labsystems, Cheshire, WA, USA). The anti-biofilm effect of compounds was expressed in the percentage (%) of decrease in biofilm formation.

| Structure (SMILES) | Biofilm absorbance (AU) |
| --- | --- |
| CC(=O)C[Se]C(=O)c1ccc(C(=O)[Se]CC(C)=O)cc1 [Se-K1] | 0.45 ± 0.17 |
| COC(=O)C[Se]C(=O)c1cc(C(=O)[Se]CC(=O)OC)cc(C(=O)[Se]CC(=O)OC)c1 [Se-E3] | 0.32 ± 0.07 |
| CC(=O)C[Se]C(=O)c1cc(C(=O)[Se]CC(C)=O)cc(C(=O)[Se]CC(C)=O)c1 [Se-K3] | 0.16 ± 0.06 |
| N#CC[Se]C(=O)c1ccc(C(=O)[Se]CC#N)cc1 [Se-C1] | 0.72 ± 0.15 |
